Assay [1] addresses dephosphorylated linear RABV nucleocapsids (treated with CIAP) (rabies virus (RABV), UniProt Q8JXF6 1-450, dephosphorylated with CIAP (5% of N molecules taken to remain phosphorylated)). The assay is described as follows: SPR. On the technique in general: Surface plasmon resonance follows binding to a sensor surface in real time, without labels.
Assay [2] addresses T1, recombinant circular RABV N10-RNA complex purified from insect cells (phosphorylated) (rabies virus (RABV), UniProt Q8JXF6 1-450, phosphoserine at 389 (about 7 out of 10 N molecules on average)).
T1 sequence: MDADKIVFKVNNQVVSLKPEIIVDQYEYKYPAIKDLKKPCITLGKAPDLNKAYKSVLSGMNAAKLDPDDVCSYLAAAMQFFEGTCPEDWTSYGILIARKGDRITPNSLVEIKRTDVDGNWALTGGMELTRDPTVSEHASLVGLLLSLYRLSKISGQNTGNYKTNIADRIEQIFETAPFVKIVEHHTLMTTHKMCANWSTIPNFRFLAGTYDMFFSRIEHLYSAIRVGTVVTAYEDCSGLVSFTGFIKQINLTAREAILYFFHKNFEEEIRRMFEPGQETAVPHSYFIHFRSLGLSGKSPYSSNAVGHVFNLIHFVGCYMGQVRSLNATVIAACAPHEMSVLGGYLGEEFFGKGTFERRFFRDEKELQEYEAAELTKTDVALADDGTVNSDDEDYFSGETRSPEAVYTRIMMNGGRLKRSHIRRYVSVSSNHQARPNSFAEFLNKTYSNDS

The term Kd denotes the constant that tells how readily two partners part at equilibrium.

B1: full-length rabies virus (RABV) phosphoprotein P dimer (natural protein)
chain: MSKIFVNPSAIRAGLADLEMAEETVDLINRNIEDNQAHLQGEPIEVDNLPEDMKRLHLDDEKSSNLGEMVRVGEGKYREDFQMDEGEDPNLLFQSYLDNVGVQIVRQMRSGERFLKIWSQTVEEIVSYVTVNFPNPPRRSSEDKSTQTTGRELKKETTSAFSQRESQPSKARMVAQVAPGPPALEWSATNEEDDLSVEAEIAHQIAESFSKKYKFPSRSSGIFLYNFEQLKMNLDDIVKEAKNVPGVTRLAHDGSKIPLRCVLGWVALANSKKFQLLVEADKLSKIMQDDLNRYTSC
In turn, B1 had a dissociation constant (Kd) in assay [1] of 1600 nM. For the same molecule, in assay [2], the “Ka (bimolecular step of the first CTD)” value was determined as 80 nM, the dissociation constant (Kd) is 5.5 nM and the “stoichiometry N” value was 3.5 monomers of P bound per N10-RNA ring.
